Source: article PMC3141006

Legend:
RctB (Vibrio cholerae) [1] = experiment: DNase I footprinting; conditions: scattered protection at 40-80 ng, broad at 160-640 ng; footprint: 20 mM Tris-Cl pH 8.0, 125 mM NaCl, 1 mM DTT, room temperature; recombinant protein; residues 1-658; protein details: His6 (C-terminal, RctB-His6); label: 5'-32P; probe letters rebuilt from the primers and the genome
RctB + ParB2 = experiment: DNase I footprinting; conditions: 100 ng ParB2 plus RctB, additive protection; footprint: 20 mM Tris-Cl pH 8.0, 125 mM NaCl, 1 mM DTT, room temperature; recombinant protein; protein details: His6 (C-terminal, RctB-His6),His6 (ParB2-His6); label: 5'-32P; probe letters rebuilt from the primers and the genome
ParB2 (Vibrio cholerae) = experiment: DNase I footprinting; conditions: 100 ng ParB2, hypersensitive sites; footprint: 20 mM Tris-Cl pH 8.0, 125 mM NaCl, 1 mM DTT, room temperature; recombinant protein; protein details: His6 (ParB2-His6); label: 5'-32P; probe letters rebuilt from the primers and the genome
[2] = tested on: RctB[ΔC159] del500-658 (Vibrio cholerae); experiment: EMSA; conditions: affinity similar to wild type, more multimeric complexes; EMSA: 20 mM Tris-Cl pH 7.5, 1 mM EDTA, 150 mM NaCl, 12.5 ug/mL poly(dI-dC), 0.1 mg/mL BSA, 10 min room temperature; recombinant protein; residues 1-499; protein details: His6 (C-terminal); label: 32P 5' end; probe letters rebuilt from the primers and the genome; part of a longer molecule
RctB (Vibrio cholerae) [3] = experiment: EMSA; conditions: EMSA: 20 mM Tris-Cl pH 7.5, 1 mM EDTA, 150 mM NaCl, 12.5 ug/mL poly(dI-dC), 0.1 mg/mL BSA, 10 min room temperature; recombinant protein; residues 1-658; protein details: His6 (C-terminal, RctB-His6); label: 32P 5' end; probe letters rebuilt from the primers and the genome; part of a longer molecule

Question: Does “CGTTTAAATAACCCACATATTCTTCGATAAGGAGAAAACATTTTAAATATTACAGTGTCACTTATTTACAATGTAAAGCCACACTTTGAAGCAATGATGAAGAAATAAAAGCGAGCAGTAAGCGGAACGATTAAACCGAGCCACTAAGTTACGGTGAATGCCATTCTGATTGAAATGATGCGCAGGATTCAAGCAAGATGAGAAAATGCCTATCTTTCCTCCAGCGAATAGGTAT (double strand) [rctA footprint probe]” bind (RctB (Vibrio cholerae) [1])?
Answer: binds

Question: Does “CGTTTAAATAACCCACATATTCTTCGATAAGGAGAAAACATTTTAAATATTACAGTGTCACTTATTTACAATGTAAAGCCACACTTTGAAGCAATGATGAAGAAATAAAAGCGAGCAGTAAGCGGAACGATTAAACCGAGCCACTAAGTTACGGTGAATGCCATTCTGATTGAAATGATGCGCAGGATTCAAGCAAGATGAGAAAATGCCTATCTTTCCTCCAGCGAATAGGTAT (double strand) [rctA footprint probe]” bind (RctB + ParB2)?
Answer: binds

Question: Does “CGTTTAAATAACCCACATATTCTTCGATAAGGAGAAAACATTTTAAATATTACAGTGTCACTTATTTACAATGTAAAGCCACACTTTGAAGCAATGATGAAGAAATAAAAGCGAGCAGTAAGCGGAACGATTAAACCGAGCCACTAAGTTACGGTGAATGCCATTCTGATTGAAATGATGCGCAGGATTCAAGCAAGATGAGAAAATGCCTATCTTTCCTCCAGCGAATAGGTAT (double strand) [rctA footprint probe]” bind (ParB2 (Vibrio cholerae))?
Answer: binds

Question: Does “GATCCGTATCACACTTACCGTAATATCACTATAGTTCCAAGAGAATAAAGAAAAAGAGATCATAAATAAAGAAAAATTTGTTGTTTTTAAATAACTGATCTTTCTGATTTAAATGATTAAATATGATTAGAGTGATCTAATGATCTGTGACGATTTTTAGTTCTAATTTATTGTAATTAAAAGAGATTGTTTTTAGCCATTCAGAAGCATGATCATGTATTGATGGAAACCATGATCAATACAAGATCGAAAGCATGATCATTTGTTCCTCTAAGCATGATCATCAGTCAACAGAATCAATGATCAATGTAAGCTTCTAAGCATGATCAAGGTGCTCACACAGTTTATCCACAACCTGAGTG (double strand) [oriCII EMSA probe]” bind [2]?
Answer: binds

Question: Does “GATCCGTATCACACTTACCGTAATATCACTATAGTTCCAAGAGAATAAAGAAAAAGAGATCATAAATAAAGAAAAATTTGTTGTTTTTAAATAACTGATCTTTCTGATTTAAATGATTAAATATGATTAGAGTGATCTAATGATCTGTGACGATTTTTAGTTCTAATTTATTGTAATTAAAAGAGATTGTTTTTAGCCATTCAGAAGCATGATCATGTATTGATGGAAACCATGATCAATACAAGATCGAAAGCATGATCATTTGTTCCTCTAAGCATGATCATCAGTCAACAGAATCAATGATCAATGTAAGCTTCTAAGCATGATCAAGGTGCTCACACAGTTTATCCACAACCTGAGTG (double strand) [oriCII EMSA probe]” bind (RctB (Vibrio cholerae) [3])?
Answer: binds

For at least one entry, the source does not settle the construct or the ends of the probe.
